Compound potency records, mixed from different reports. Data source: NIAID ChemDB in PubChem.

Common to all: growth or infection tests

ECn is the concentration giving n% inhibition of infection, replication or growth.

{"smiles": "CCOC(=O)c1c(C)nc(NCCCCNc2ccnc3cc(Cl)ccc23)nc1-c1ccccc1[N+](=O)[O-]", "organism": "Cryptococcus gattii", "strain": "ATCC 32608", "endpoint": "MIC99", "result": "16 µg/mL"}
{"smiles": "O=S(=O)(O)c1ccc2cc(O)c(S(=O)(=O)O)cc2c1", "organism": "Herpes simplex virus", "cell line": "Human amnion AV3 cells", "method": "cytopathic effect", "endpoint": "inhibition", "tested at": "5 µg/mL", "result": "0%"}
{"smiles": "C=CCc1ccc(O)c(OC)c1", "organism": "Candida glabrata", "strain": "3147", "method": "turbidity", "endpoint": "MIC90", "result": "475 µg/mL"}
{"smiles": "O=C(NCc1ccc(Cl)cc1)c1c[nH]c2ccc(CCCO)cc2c1=O", "organism": "Simian varicella-zoster virus", "method": "plaque count", "endpoint": "EC50", "result": "3.7 µM"}
{"smiles": "C[C@@H](Oc1ccc(CNC(=O)c2c3n(c(=O)n2-c2ccc(OCC(F)(F)F)cc2)CCN(C(=O)c2ccc(Br)c(Cl)c2)C3)c(F)c1)C(N)=O", "organism": "Hepatitis B virus", "cell line": "HepG2.117", "method": "PCR", "endpoint": "EC50", "result": "0.5–5 µM"}
{"smiles": "CCC(CC)O[C@@H]1C=C(C(=O)O)C[C@H](N)[C@H]1NC(C)=O", "organism": "Influenza A virus", "strain": "H1N1 A/PR/8/34", "cell line": "MDCK", "endpoint": "EC50", "result": "0.22 µM"}
{"smiles": "Oc1ccc(O)c(C=Nc2ccccc2O)c1", "organism": "Cryptococcus gattii", "strain": "LMM 818", "endpoint": "MIC99", "result": "8 µg/mL"}
{"smiles": "Nc1ccc(S(=O)(=O)O)cc1", "organism": "Adenovirus", "strain": "TYPE 3", "cell line": "Human embryonic lung cells", "method": "cytopathic effect", "endpoint": "inhibition", "tested at": "10 µg/mL", "result": "0%"}
{"smiles": "O=c1[nH]c(=O)n([C@H]2C[C@H](O)[C@@H](CO)O2)cc1I", "organism": "Varicella zoster virus", "strain": "YS", "cell line": "HELF", "method": "plaque count", "endpoint": "inhibition", "tested at": "0.1 µg/mL", "result": "5%"}
{"smiles": "CCOC(=O)/C=C/[C@H](C[C@@H]1CCNC1=O)NC(=O)[C@@H](CC(=O)[C@@H](NC(=O)c1cc(C)on1)C(C)C)Cc1ccc(F)cc1", "organism": "Rhinovirus", "strain": "Isolate 43", "cell line": "OHIO HELA-I", "method": "cytopathic effect / visual reading", "endpoint": "EC50", "result": "0.02 µg/mL"}
{"smiles": "CCOC(=O)c1c(C)nc(NCCCCNc2ccnc3cc(Cl)ccc23)nc1-c1ccccc1", "organism": "Cryptococcus gattii", "strain": "23/10993", "endpoint": "MIC99", "result": "5.7 µg/mL"}
{"smiles": "COc1ccc([C@@H](C)NC(=O)c2c3n(c(=O)n2-c2ccc(OC4CC4)cc2)C[C@H](C)N(C(=O)c2ccc(Br)c(Cl)c2)C3)cc1", "organism": "Hepatitis B virus", "cell line": "HepG2.117", "method": "PCR", "endpoint": "EC50", "result": "<0.1 µM"}
{"smiles": "Nc1nc2c(ncn2C=C2CC2CO)c(=O)[nH]1", "organism": "Human cytomegalovirus", "strain": "VR4991 (ganciclovir-resistant)", "method": "plaque count", "endpoint": "EC50", "result": "1.1 µM"}
{"smiles": "CCC(CC)O[C@@H]1C=C(C(=O)O)C[C@H](N)[C@H]1NC(C)=O", "organism": "Influenza B virus", "strain": "Isolate C35C", "cell line": "MDCK", "method": "plaque count", "endpoint": "EC50", "result": "0.055 µg/mL"}
{"smiles": "Oc1ccccc1N=Cc1ccc2c(c1)OCO2", "organism": "Cryptococcus gattii", "strain": "L-28/02", "endpoint": "MIC99", "result": "11.3 µg/mL"}
{"smiles": "CN[C@H]1CC[C@@H](c2ccc(Cl)c(Cl)c2)c2ccccc21", "organism": "Cryptococcus neoformans", "strain": "C23", "method": "broth dilution", "endpoint": "MIC90", "result": "5 µg/mL"}
{"smiles": "Nc1c(S(=O)(=O)[O-])cc2cc(S(=O)(=O)[O-])ccc2c1O", "organism": "Adenovirus", "strain": "TYPE 3", "cell line": "Human embryonic lung cells", "method": "cytopathic effect", "endpoint": "inhibition", "tested at": "10 µg/mL", "result": "90%"}
{"smiles": "CCOC(=O)c1cnc(NCCCCNc2ccnc3cc(Cl)ccc23)nc1C", "organism": "Cryptococcus gattii", "strain": "1913 ER", "endpoint": "MIC99", "result": "8 µg/mL"}
{"smiles": "O=c1[nH]c(=O)n([C@@H]2O[C@H](CO)[C@@H](O)[C@@H]2O)cc1/C=C/Br", "organism": "Varicella zoster virus", "strain": "YS", "cell line": "HELF", "method": "plaque count", "endpoint": "inhibition", "tested at": "0.01 µg/mL", "result": "100%"}
{"smiles": "CCOC(=O)c1c(C)nc(NCCCNc2ccnc3cc(Cl)ccc23)nc1-c1ccccc1", "organism": "Cryptococcus neoformans", "strain": "C-3-1", "endpoint": "MIC99", "result": "2 µg/mL"}
{"smiles": "CCc1cn([C@@H]2O[C@H](CO)[C@@H](O)[C@@H]2O)c(=O)[nH]c1=O", "organism": "Varicella zoster virus", "strain": "YS", "cell line": "HELF", "method": "plaque count", "endpoint": "inhibition", "tested at": "10 µg/mL", "result": "0%"}
{"smiles": "O=S(=O)([O-])c1cc(NS(=O)(=O)c2ccccc2)c2c(S(=O)(=O)[O-])cc(S(=O)(=O)[O-])cc2c1", "organism": "Rhinovirus", "cell line": "Human amnion AV3 cells", "method": "cytopathic effect", "endpoint": "inhibition", "tested at": "50 µg/mL", "result": "0%"}
{"smiles": "Cc1ccn(-c2ccc(-n3c(C(=O)NCc4ccccc4)c4n(c3=O)CCN(C(=O)c3ccc(Br)c(Cl)c3)C4)cc2)n1", "organism": "Hepatitis B virus", "cell line": "HepG2.117", "method": "PCR", "endpoint": "EC50", "result": "0.1–0.5 µM"}
{"smiles": "Nc1nc(=O)n([C@@H]2O[C@H](CO)[C@@H](O)[C@@H]2F)cc1I", "organism": "Varicella zoster virus", "strain": "HIRAI", "cell line": "HELF", "method": "plaque count", "endpoint": "inhibition", "tested at": "0.01 µg/mL", "result": "80%"}
{"smiles": "CCO/N=C/c1ccc(OCCC2CCN(c3ccc(Cl)nn3)CC2)cc1", "organism": "Rhinovirus", "strain": "611-CV35 (ICAM-1 receptor group 59)", "cell line": "KB", "method": "neutral red", "endpoint": "EC50", "result": "0.002 µM"}
{"smiles": "C[C@@H](NC(=O)c1c2n(c(=O)n1-c1ccc(OCC(F)(F)F)cc1)CCN(C(=O)c1ccc(Br)c(Cl)c1)C2)c1ccc(OCC#N)cc1F", "organism": "Hepatitis B virus", "cell line": "HepG2.117", "method": "PCR", "endpoint": "EC50", "result": "0.5–5 µM"}
{"smiles": "O=S(=O)(O)c1cc(O)c2c(O)c(N=Nc3ccccc3)c(S(=O)(=O)O)cc2c1", "organism": "Adenovirus", "strain": "TYPE 3", "cell line": "Human embryonic lung cells", "method": "cytopathic effect", "endpoint": "inhibition", "tested at": "50 µg/mL", "result": "25%"}
{"smiles": "O=c1[nH]c(=O)n([C@H]2C[C@H](O)[C@@H](CO)O2)cc1/C=C/Br", "organism": "Varicella zoster virus", "strain": "Asahikawa", "cell line": "HELF", "method": "plaque count", "endpoint": "inhibition", "tested at": "0.01 µg/mL", "result": "26%"}
{"smiles": "Cn1cc(C(=O)NCc2ccc(Cl)cc2)c(=O)c2cc(CN3CCOCC3)ccc21", "organism": "Varicella zoster virus", "strain": "ST varicella isolate", "cell line": "HFF", "method": "plaque count", "endpoint": "inhibition", "tested at": "2.8 µM", "result": "90%"}
{"smiles": "C=C/C(C)=C/[C@@]1(C)SC(=O)C(C)=C1O", "organism": "Escherichia coli", "strain": "UB1005/PEMR2.6", "endpoint": "MIC", "result": "200 µM"}
{"smiles": "O=S(=O)([O-])c1ccc2c(S(=O)(=O)[O-])cc(S(=O)(=O)[O-])cc2c1", "organism": "Herpes simplex virus", "cell line": "Human amnion AV3 cells", "method": "cytopathic effect", "endpoint": "inhibition", "tested at": "50 µg/mL", "result": "20%"}

Repeating the first 2 entries:

CCOC(=O)c1c(C)nc(NCCCCNc2ccnc3cc(Cl)ccc23)nc1-c1ccccc1[N+](=O)[O-] ; organism: Cryptococcus gattii ; strain: ATCC 32608 ; endpoint: MIC99 ; result: 16 µg/mL
O=S(=O)(O)c1ccc2cc(O)c(S(=O)(=O)O)cc2c1 ; organism: Herpes simplex virus ; cell line: Human amnion AV3 cells ; method: cytopathic effect ; endpoint: inhibition ; tested at: 5 µg/mL ; result: 0%

a–b is a range or a potency band. MIC50, MIC90 and the like: level of inhibition, or share of isolates inhibited. Rows are shuffled and stem from different studies. Percent inhibition refers to the dose given; in toxicity tests it is the harm to the cells.